Compound potency records, mixed from different reports. Data source: NIAID ChemDB in PubChem.

All rows: toxicity to cultured cells; cell line: HUMAN SPERM; read-out: CC50

CCn is the concentration with n% toxicity to the cells.

SMILES | result
Cc1cn([C@H]2C[C@H](N)[C@@H](CO)O2)c(=O)[nH]c1=O | >300 µM
S=C(NCCc1ccc(Cl)cc1)Nc1ccc(Br)cn1 | 160 µM
COC(=O)[C@H](Cc1c[nH]c2ccccc12)NP(=O)(OC[C@H]1O[C@@H](N2C(=O)NC(=O)C(C)(Br)C2OC)C[C@@H]1N=[N+]=[N-])Oc1ccc([N+](=O)[O-])cc1 | 39 µM
CCCCCCCCCc1ccc(OCCOCCOCCOCCOCCOCCOCCOCCOCCO)cc1 | 81 µM
FC(F)(F)c1ccc(NC(=S)NCCC2=CCCCC2)nc1 | 131 µM
COC(=O)[C@H](C)NP(=O)(OC[C@H]1O[C@@H](N2C(=O)NC(=O)C(C)(Br)C2OC)C[C@@H]1N=[N+]=[N-])Oc1ccc(OC)cc1 | 24 µM
COC1N([C@H]2C[C@H](N)[C@@H](CO)O2)C(=O)NC(=O)C1(C)Br | 12 µM
CCCCCCCCCc1ccc(OCCOCCOCCOCCOCCOCCOCCOCCOCCO)cc1 | 86 µM
COC(=O)[C@H](C)NP(=O)(OC[C@H]1O[C@@H](N2C(=O)NC(=O)C(C)(Br)C2OC)C[C@@H]1N=[N+]=[N-])Oc1ccc(OC)cc1 | 29 µM
CC1(C)C2CCC(COCCNC(=S)Nc3ccc(Br)cn3)C1C2 | >500 µM
COC(=O)[C@H](C)NP(=O)(OC[C@@H]1CC[C@H](N2C(=O)NC(=O)C(C)(Br)C2OC)O1)Oc1ccccc1 | 42 µM
Cc1ccc(CCNC(=S)Nc2ccc(Br)cn2)cc1 | >500 µM
COC(=O)[C@@H](NP(=O)(OC[C@H]1O[C@@H](N2C(=O)NC(=O)C(C)(Br)C2OC)C[C@@H]1N=[N+]=[N-])Oc1ccccc1)C(C)C | 300 µM
COC(=O)[C@H](C)NP(=O)(OC[C@H]1O[C@@H](n2cc(C)c(=O)[nH]c2=O)C[C@@H]1N=[N+]=[N-])Oc1ccc(F)cc1 | >300 µM
COc1ccccc1CCNC(=S)Nc1ccc(Br)cn1 | >500 µM
S=C(NCCc1ccccc1Cl)Nc1ccc(Br)cn1 | 147 µM
COC(=O)[C@H](C)NP(=O)(OC[C@H]1O[C@@H](n2cc(C)c(=O)[nH]c2=O)C[C@@H]1N=[N+]=[N-])Oc1ccccc1 | >300 µM
Fc1ccc(CCNC(=S)Nc2ccc(Br)cn2)cc1 | >500 µM
CSCSc1nc(Cc2ccccc2)c(C(C)C)c(=O)[nH]1 | 202 µM
Fc1ccccc1CCNC(=S)Nc1ccc(Br)cn1 | 70 µM
COC(=O)[C@@H]1CCCN1P(=O)(OC[C@H]1O[C@@H](N2C(=O)NC(=O)C(C)(Br)C2OC)C[C@@H]1N=[N+]=[N-])Oc1ccccc1 | >61 µM

A second listing of 2 rows from above:

| SMILES | result |
|---|---|
| COC(=O)[C@H](Cc1c[nH]c2ccccc12)NP(=O)(OC[C@H]1O[C@@H](N2C(=O)NC(=O)C(C)(Br)C2OC)C[C@@H]1N=[N+]=[N-])Oc1ccc([N+](=O)[O-])cc1 | 39 µM |
| Cc1ccc(CCNC(=S)Nc2ccc(Br)cn2)cc1 | >500 µM |

Rows are shuffled and stem from different studies.